A mixed list of measured activities; the numbers were collected in NIAID ChemDB.

Common to all: tests in culture; organism: Mycobacterium bovis

Neighbouring rows are from separate reports.

structure | strain | method | conditions | read-out | dose | value
O=C(O)c1ccc(N=Cc2ccccn2)cc1O | BCG |  |  | inhibition | 33 µM | 70%
CC(=O)N1CCN(c2ccc(OC[C@H]3CO[C@](Cn4ccnc4)(c4ccc(Cl)cc4Cl)O3)cc2)CC1 |  |  |  | EC50 |  | >1 µM
O=C(O)c1ccc(N=Cc2ccccc2O)cc1O | BCG |  |  | EC75 |  | 31 µM
COc1ccnc2[nH]cc(C(=O)C(=O)N3CCN(C(=O)c4ccccc4)C[C@H]3C)c12 | BCG |  | pseudotyped | EC50 |  | 0.001 µM
CC1CNCCN1S(=O)(=O)c1cccc2cnccc12 | BCG |  |  | EC50 |  | <20 µg/mL
CC(C)N1CCN(c2ccc(OC[C@@H]3CO[C@@](Cn4cncn4)(c4ccc(Cl)cc4Cl)O3)cc2)CC1 |  |  |  | EC50 |  | >100 µM
O=[N+]([O-])c1cn2c(n1)OC[C@@H](OCc1ccc(OC(F)(F)F)cc1)C2 | BCG |  |  | MIC |  | 0.05 µg/mL
O=[N+]([O-])c1ccc(O)c2ncccc12 | BCG |  |  | MIC |  | 10 µM
Clc1ccc(C2(Cn3cncn3)OCCO2)c(Cl)c1 |  |  |  | EC50 |  | >1 µM
CO[C@H]1/C=C/O[C@@]2(C)Oc3c(C)c(O)c4c(O)c(c(/C=N/N5CCN(C)CC5)c(O)c4c3C2=O)NC(=O)/C(C)=C\C=C\[C@H](C)[C@H](O)[C@@H](C)[C@@H](O)[C@@H](C)[C@H](OC(C)=O)[C@@H]1C | SB1176 | resazurin |  | MIC |  | 0.09 µg/mL
CC1CN(c2c(F)cc3c(=O)c(C(=O)O)cn(C4CC4)c3c2Br)CCN1 | BCG-CX1 (D94N) |  |  | MIC |  | 0.76 µg/mL
COc1ccc(C=Nc2ccc(C(=O)O)c(O)c2)c(O)c1 | BCG |  |  | EC75 |  | 26 µM
C[C@]1(COc2ccc(N3CCC(Oc4ccc(OC(F)(F)F)cc4)CC3)cc2)Cn2cc([N+](=O)[O-])nc2O1 | BCG |  |  | MIC |  | 0.012 µg/mL
CC1CN(c2cc3c(cc2F)c(=O)c(C(=O)O)cn3C2CC2)CCN1 | BCG-CX2 (A90V D94N) |  |  | MIC |  | 25 µg/mL
CCC1(c2ccccc2)NC(=O)NC1=O |  |  |  | EC50 |  | >100 µM
COc1ccc(C=O)cc1 | AN5 | resazurin |  | MIC |  | 7.29 µg/mL
c1ccc2[nH]cnc2c1 |  |  |  | EC50 |  | >100 µM
CN[C@@H]1[C@H](O[C@H]2[C@H](O[C@H]3[C@H](O)[C@@H](O)[C@H](N=C(N)N)[C@@H](O)[C@@H]3N=C(N)N)O[C@@H](C)[C@]2(O)C=O)O[C@@H](CO)[C@H](O)[C@H]1O | BCG |  |  | MIC |  | 6.25 µg/mL
CCN1CCN(c2cc3c(cc2F)c(=O)c(C(=O)O)cn3C2CC2)CC1 | BCG-CX2 (A90V D94N) |  |  | MIC |  | 35 µg/mL
Clc1ccccc1C(c1ccccc1)(c1ccccc1)n1ccnc1 |  |  |  | EC50 |  | >1 µM

An empty or dashed field is not shown. Percent inhibition refers to the dose given; in toxicity tests it is the harm to the cells. ECn: concentration that inhibits the pathogen or its effect by n%.